Results of unrelated studies side by side (data: NIAID ChemDB).

Shared fields: tests in culture; agent: Coxsackie virus; method: cytopathic effect; measure: EC50

Conditions beyond the fields shown may differ between rows. ECn is the concentration giving n% inhibition of infection, replication or growth. Blank or dashed fields: not listed here.

structure | cells | strain or isolate | value
Clc1ccc(-c2nc3ccn(Cc4ccc(Br)cc4)cc-3n2)cc1 | VERO | NANCY (TYPE B3) | 8.47 µg/mL
CSCC1=C[C@@H](n2cnc3c(N)ncnc32)[C@H](O)[C@@H]1O | HeLa | TYPE B4 | >200 µg/mL
CC1(CO)CCC(Cn2nnc3c(=O)[nH]cnc32)C1(C)C | HeLa | TYPE B4 | >200 µg/mL
CC=NC(=N)c1nc(-c2ccccc2)n(Cc2ccccc2)n1 | VERO | TYPE B4 | >4 µg/mL
Nc1ncnc2c1ncn2C[C@H](O)CO | HeLa | TYPE B4 | >400 µg/mL
Nn1c(-c2cn(-c3ccccc3)nc2-c2ccccc2)n[nH]c1=S | HeLa | TYPE B4 | >16 µg/mL
CC=NC(=N)c1nc(-c2ccc(C)cc2)n(C/C=C/c2ccccc2)n1 | VERO | TYPE B4 | >10 µg/mL
CCOC(=O)Sc1nnc(-c2cn(-c3ccccc3)nc2-c2ccccc2)n1N | HeLa | TYPE B4 | >80 µg/mL
CON=C1C[C@H](n2cc(C)c(=O)[nH]c2=O)O[C@@H]1CO | VERO |  | >200 µg/mL
Nc1ccn([C@@H]2C=C(CO)[C@@H](O)[C@H]2O)c(=O)n1 | HeLa | TYPE B4 | 0.2 µg/mL
NC1=Nn2c(nnc2-c2cn(-c3ccccc3)nc2-c2ccccc2)SC1 | HeLa | TYPE B4 | >16 µg/mL
c1ccc(-c2nc3ccn(CC4CCCCC4)cc-3n2)cc1 | VERO | NANCY (TYPE B3) | 6.5 µg/mL
NC1CCCON2CCc3c([nH]c4ccccc34)[C@H]12 | VERO | TYPE B4 | 7 µg/mL
CCOc1ccc(-c2onc(N(CC)CC)c2Cc2c(N(CC)CC)noc2-c2ccc(O)cc2O)c(O)c1 | VERO | ATCC VR28 (TYPE B1) | >17 µM
Nc1ncnc2c1ncn2[C@@H]1C=C(CO)[C@@H](O)[C@@H]1O | VERO | TYPE B4 | 100 µg/mL
CCOC(=O)C1=CSc2nnc(-c3cn(-c4ccccc4)nc3-c3ccccc3)n2N=C1N | VERO | TYPE B4 | >16 µg/mL
COc1ccc(-c2cc(N3CCCCC3)no2)c(O)c1 | VERO | ATCC VR28 (TYPE B1) | >364 µM
CC=NC(=N)c1nc(-c2ccc(C)cc2)n(Cc2ccccc2)n1 | HeLa | TYPE B4 | >10 µg/mL
CC1(CO)CCC(Cc2nc3ncnc(N)c3[nH]2)C1(C)C | HeLa | TYPE B4 | >40 µg/mL
Nc1ncnc2c1ncn2[C@H]1C[C@@H](CO)[C@H](O)[C@@H]1O | HeLa | TYPE B4 | >400 µg/mL
c1ccc(C2=Nn3c(nnc3-c3cn(-c4ccccc4)nc3-c3ccccc3)SC2)cc1 | VERO | TYPE B4 | >16 µg/mL
CN(C)c1cccc(-c2nc3ccn(Cc4ccc(Br)cc4)cc-3n2)c1 | VERO | NANCY (TYPE B3) | 6.1 µg/mL
[N-]=[N+]=NC(CBr)c1cc([C@H]2C[C@H](O)[C@@H](CO)O2)c(F)cc1F | VERO | TYPE B4 | >16 µg/mL
NC1CSCCN2CCc3c([nH]c4ccccc34)[C@H]12 | HeLa | TYPE B4 | 20 µg/mL
C=C(N=CC)c1nc(-c2ccccc2)n(C2O[C@H](CO)[C@@H](O)[C@H](O)[C@H]2O)n1 | VERO | TYPE B4 | >200 µg/mL
CCOC(=O)CSc1nnc(-c2cn(-c3ccccc3)nc2-c2ccccc2)n1N | HeLa | TYPE B4 | >16 µg/mL
CCCCCCCCCCc1nccn(C(CO)OC(CO)CO)c1=O | MRC-5 | TYPE B4 | >100 µM
COc1ccc(-c2cc(N3CCCC3)no2)c(O)c1 | VERO | ATCC VR28 (TYPE B1) | >384 µM
Nc1ncnc2c1ncn2[C@@H]1C=C(CO)[C@@H](O)[C@H]1O | VERO | TYPE B4 | >40 µg/mL
CC(C)CS[C@@H]1C[C@H](n2cnc3c(N)ncnc32)[C@@H](O)[C@H]1O | HeLa | TYPE B4 | >80 µg/mL
Nc1nccc2c1ncn2[C@@H]1C[C@H](CO)[C@@H](O)[C@H]1O | HeLa | TYPE B4 | >400 µg/mL
CCOc1ccc(-c2cc(N3CCCCC3)no2)c(O)c1 | VERO | ATCC VR28 (TYPE B1) | >347 µM
CC1(CO)CCC(Cn2ccc(=O)[nH]c2=O)C1(C)C | VERO | TYPE B4 | >400 µg/mL
c1ccc(-c2nn3c(-c4cn(-c5ccccc5)nc4-c4ccccc4)nnc3s2)cc1 | HeLa | TYPE B4 | >3.2 µg/mL
Nc1nc2c(ncn2[C@H]2CO[C@@H](CO)C2)c(=O)[nH]1 | HeLa | TYPE B4 | >200 µg/mL
Nc1ncnc2c1ncn2[C@@H]1C=C(CO)[C@@H](O)C1 | VERO | TYPE B4 | 40 µg/mL
Nc1nc(F)nc2c1ncn2[C@@H]1C=C(CO)[C@@H](O)[C@H]1O | HeLa | TYPE B4 | ≥100 µg/mL
COc1ccc2[nH]c3c(c2c1)CCN1OCSCC(N)[C@@H]31 | VERO | TYPE B4 | 0.07 µg/mL
N#Cc1cc([N+](=O)[O-])ccc1Oc1ccc(Cl)c(Cl)c1 | HeLa | TYPE B3 | 1.5 µg/mL
Nc1nc2c(ccn2[C@H]2CO[C@@H](CO)C2)c(=O)[nH]1 | HeLa | TYPE B4 | >400 µg/mL
Nc1ncnc2c1ncn2[C@@H]1C[C@H](COP(=O)(O)O)[C@@H](O)[C@H]1O | HeLa | TYPE B4 | >400 µg/mL
CC(=O)Nn1c(-c2cn(-c3ccccc3)nc2-c2ccccc2)n[nH]c1=S | HeLa | TYPE B4 | >80 µg/mL

For reference, 6 entries again:

structure,cells,strain or isolate,value
CN(C)c1cccc(-c2nc3ccn(Cc4ccc(Br)cc4)cc-3n2)c1,VERO,NANCY (TYPE B3),6.1 µg/mL
NC1CSCCN2CCc3c([nH]c4ccccc34)[C@H]12,HeLa,TYPE B4,20 µg/mL
CON=C1C[C@H](n2cc(C)c(=O)[nH]c2=O)O[C@@H]1CO,VERO,,>200 µg/mL
C=C(N=CC)c1nc(-c2ccccc2)n(C2O[C@H](CO)[C@@H](O)[C@H](O)[C@H]2O)n1,VERO,TYPE B4,>200 µg/mL
CCOC(=O)Sc1nnc(-c2cn(-c3ccccc3)nc2-c2ccccc2)n1N,HeLa,TYPE B4,>80 µg/mL
Clc1ccc(-c2nc3ccn(Cc4ccc(Br)cc4)cc-3n2)cc1,VERO,NANCY (TYPE B3),8.47 µg/mL